Measured values from several laboratories, pooled; numbers as filed in NIAID ChemDB.

Common to all: whole-cell or culture tests; organism: HIV-1; cells: CEM; endpoint: EC50

Blank or dashed fields: not listed here. Neighbouring rows are from separate reports. ECn: concentration that inhibits the pathogen or its effect by n%.

compound,strain or isolate,mutations,read by,result
COc1cc(Cc2cnc(/N=C3\C(=O)N(CN4CCN(c5ccc(Cl)cc5)CC4)c4ccc(F)cc43)nc2N)cc(OC)c1OC,-,-,cytopathic effect / XTT,>95.6 µg/mL
O=C(c1cccc([N+](=O)[O-])c1)c1ccc2c(c1)sc(=O)n2Cc1ccccc1,IIIB,-,syncytia,>1.6 µg/mL
CCN(CC)CN1C(=O)/C(=N\c2ncc(Cc3cc(OC)c(OC)c(OC)c3)c(N)n2)c2cc(F)ccc21,-,-,cytopathic effect / XTT,>116 µg/mL
O=C(c1ccc(Cl)c(Cl)c1)c1ccc2[nH]c(=O)sc2c1,IIIB,-,syncytia,>8 µg/mL
NC(=O)CCNC(=O)c1ccccc1SCc1ccc(OP2(=O)OCc3ccccc3O2)cc1,RF,-,XTT,0.89 µM
COc1cc(Cc2cnc(/N=C3\C(=O)N(CN4CCCC4)c4ccc(F)cc43)nc2N)cc(OC)c1OC,-,-,cytopathic effect / XTT,>121 µg/mL
CCOCn1c(Sc2ccccc2)c(C(C)C)c(=O)[nH]c1=S,IIIB TIBO R82913-resistant (RT K103N),RT-K103N,syncytia,1 µM
O=C(c1cccc(F)c1)c1ccc2c(c1)oc(=O)n2CCN1CCOCC1,IIIB,-,syncytia,>8 µg/mL
CCCCC(CC)COC(=O)c1cc(NC(=S)OC(C)C)ccc1Cl,-,RT-Y181C,syncytia,16.84 µM
Cc1cn([C@H]2C[C@H](O)[C@@H](COC(=O)CCCCCCCCCCCBr)O2)c(=O)[nH]c1=O,-,-,cytopathic effect / XTT,25.7 µM
O=C(c1ccccc1)c1ccc2[nH]c(=O)sc2c1,IIIB,-,syncytia,>1.6 µg/mL
COC(=O)N[C@H](C(=O)N[C@@H](Cc1ccccc1)[C@@H](O)CN(Cc1ccc(-c2ccccn2)cc1)NC(=O)[C@@H](NC(=O)OC)C(C)(C)C)C(C)(C)C,IIIB,-,XTT,<4 µM
CCCOC(=S)Nc1ccc(Cl)c(C(=O)OC(C)C)c1,-,RT-Y181C,syncytia,17.41 µM
Cc1cc(C)cc(Cc2c(C(C)C)c(=O)[nH]c(=O)n2COCCO)c1,IIIB,RT-E138K,syncytia,0.53 µM
O=C(c1ccccc1)c1ccc2c(c1)oc(=O)n2CCN1CCOCC1,IIIB,-,syncytia,>8 µg/mL
CCOCn1c(Cc2ccccc2)c(C(C)C)c(=O)[nH]c1=O,IIIB,RT-Y181I,syncytia,27 µM
CC(=O)COc1cc(NC(=S)OC(C)C)ccc1Cl,-,RT-L100I,syncytia,14.91 µM
COc1cc(Cc2cnc(/N=C3\C(=O)N(CN4CCN(C)CC4)c4ccc(F)cc43)nc2N)cc(OC)c1OC,-,-,cytopathic effect / XTT,>115 µg/mL
CCC(CC)COC(=O)c1cc(NC(=S)OC(C)C)ccc1Cl,-,RT-V106A,syncytia,2.375 µM
Cc1cn([C@@H]2O[C@H](C(CO[Si](C)(C)C(C)(C)C)O[Si](C)(C)C(C)(C)C)C3(OS(=O)(=O)C=C3N)[C@H]2O[Si](C)(C)C(C)(C)C)c(=O)[nH]c1=O,IIIB,-,syncytia,>136 µM
C=CCSc1cc(NC(=S)OC(C)C)ccc1Cl,-,RT-L100I,syncytia,2.231 µM
CCc1c(Sc2ccccc2)n(COCc2ccccc2)c(=O)[nH]c1=O,IIIB,RT-Y181I,syncytia,0.35 µM
C=C(C)COc1cc(NC(=S)OC(C)C)ccc1Cl,-,RT-E138K,syncytia,2.335 µM
CCOCn1c(Sc2ccccc2)c(C(C)C)c(=O)[nH]c1=O,IIIB,RT-E138K,syncytia,0.45 µM
CCC(C)OC(=S)Nc1ccc(Cl)c(C(=O)OC(C)(C)C)c1,-,RT-V106A,syncytia,1.018 µM
NC(=O)CCNC(=O)c1ccccc1SCc1ccccc1,IIIB,-,cytopathic effect / XTT,34.9 µM
CO/N=C/c1cc(NC(=S)OC(C)C)ccc1Cl,-,RT-E138K,syncytia,2.441 µM
CCCCC(=O)c1ccc2c(c1)sc(=O)n2Cc1ccccc1,IIIB,-,syncytia,>8 µg/mL
C#CCOc1cc(NC(=S)OC(C)C)ccc1Cl,-,RT-E138K,syncytia,2.467 µM
Cc1cn([C@@H]2O[C@H](C3CO[Si](C(C)C)(C(C)C)O[Si](C(C)C)(C(C)C)O3)C3(OS(=O)(=O)C=C3N)[C@H]2O[Si](C)(C)C(C)(C)C)c(=O)[nH]c1=O,IIIB,-,syncytia,>26.7 µM
CCc1c(Sc2cc(C)cc(C)c2)n(COCCO)c(=O)[nH]c1=O,IIIB,-,syncytia,0.003 µM
CC[C@H](C)OC(=S)Nc1ccc(Cl)c(C(=O)OC(C)C)c1,-,RT-E138K,syncytia,0.212 µM
CCOCn1c(Sc2cc(C)cc(C)c2)c(CC)c(=O)[nH]c1=O,IIIB (TIBO 82150) (RT-L100I),RT-L100I,syncytia,0.006 µM
CC(C)COC(=O)c1cc(NC(=S)OC(C)C)ccc1Cl,-,RT-Y181C,syncytia,6.063 µM

Repeating the first 2 entries:

{"compound": "COc1cc(Cc2cnc(/N=C3\\C(=O)N(CN4CCN(c5ccc(Cl)cc5)CC4)c4ccc(F)cc43)nc2N)cc(OC)c1OC", "read by": "cytopathic effect / XTT", "result": ">95.6 µg/mL"}
{"compound": "O=C(c1cccc([N+](=O)[O-])c1)c1ccc2c(c1)sc(=O)n2Cc1ccccc1", "strain or isolate": "IIIB", "read by": "syncytia", "result": ">1.6 µg/mL"}